Biological target: WT HIV-1 RT (Human immunodeficiency virus type 1 group M subtype B, UniProt P03366)
Assay: Enzymatic assay against WT HIV-1 RT

Structure (SMILES): Cc1cc(C#N)cc(C)c1Oc1nc(Nc2ccc(C#N)cc2)nc(N)c1Br [ETR, etravirine, reference compound]
- IC50: 9 ± 3 nM
